Measurements: paper PMC11628845 (Acta Pharmaceutica Sinica. B, 2024)

System: ETV-resistant HBV (rtL180M + A181C + M204V)
Assay: microbe, parasite or virus in culture
Type: cell-based
Conditions: Hepatitis B virus, Huh-7, read-out: HBV DNA IC50, rt180M181C204V

## COc1ccc(Cc2[nH]/c(=N/C(=O)C34CC5CC(CC(C5)C3)C4)n(C)c2Cc2ccc(OC)c(OC)c2)cc1 [11a, (Z)-N-(5-(3,4-Dimethoxybenzyl)-4-(4-methoxybenzyl)-1-methyl-1,3-dihydro-2H-imidazole-2-ylidene)adamantane-1-carboxamide]
  IC50: 13.7 µM
